Pooled drug test results. Numbers come from NIAID ChemDB, via PubChem.

All rows: whole-cell or culture tests

Conditions beyond the fields shown may differ between rows. ECn: concentration that inhibits the pathogen or its effect by n%. MIC50, MIC90 and the like: level of inhibition, or share of isolates inhibited. An empty or dashed field is not shown. Two numbers with a dash give a range or band. Percent inhibition refers to the dose given; in toxicity tests it is the harm to the cells.

| SMILES | species | strain | mutations | cells | method | setting | read-out | tested at | value |
|---|---|---|---|---|---|---|---|---|---|
| C=C/C(C)=C/[C@@]1(C)SC(=O)C(C)=C1O | Escherichia coli | UB1005/PEMR2.1 | - | - | - | - | MIC | - | >600 µM |
| Cc1ccc2oc(=S)n(-c3cccc(Cl)c3)c(=S)c2c1 | Mycobacterium kansasii | My 235/80 | - | - | - | 21 d | MIC | - | 2 µM |
| CCCCCCCNC(=S)Nc1ccc2c(c1)Cc1cc(Br)ccc1-2 | Hepatitis C virus | - | - | Ava5-EG(delta4AB)SEAP | reporter gene / fluorescence | - | EC50 | - | 0.001–1 µM |
| O=C1Nc2ccc(F)c(F)c2[C@@](C#CC2CC2)(C(F)(F)F)N1 | HIV-1 | - | RT-P225H | - | - | - | EC90 | - | <0.012 µM |
| O=C(Nc1cc(C(F)(F)F)cc(C(F)(F)F)c1)NN(C(=O)Nc1cc(C(F)(F)F)cc(C(F)(F)F)c1)c1nc2ccccc2s1 | Klebsiella pneumoniae | KL21 | - | - | - | - | MIC | - | >300 µM |
| S=C(NCCCc1ccccc1)Nc1cccc(OCCCCCc2ccccc2)c1 | Hepatitis C virus | - | - | Ava5-EG(delta4AB)SEAP | reporter gene / fluorescence | - | EC50 | - | 0.001–1 µM |
| Nc1nc2c(ncn2C=C2CC2CO)c(=O)[nH]1 | Human cytomegalovirus | VR5120 (ganciclovir-resistant) | - | - | plaque count | - | EC90 | - | 4.8 µM |
| NC(=S)Nc1cccc(OCCCCCOc2c(Cl)cccc2Cl)c1 | Hepatitis C virus | - | - | Ava5-EG(delta4AB)SEAP | reporter gene / fluorescence | - | EC50 | - | 0.001–1 µM |
| Cc1ccc2oc(=O)n(-c3ccc(Cl)c(Cl)c3)c(=S)c2c1 | Mycobacterium kansasii | My 235/80 | - | - | - | 14 d | MIC | - | 4 µM |
| CC(C)Nc1nc2cc(Cl)c(Cl)cc2n1[C@H]1O[C@@H](CO)[C@H](O)[C@@H]1O | Human cytomegalovirus | 9330REC5 (HIS520GLU) | - | MRC-5 | hybridisation | - | EC50 | - | 0.13 µM |
| S=c1oc2ccc(Br)cc2c(=S)n1-c1cccc(Cl)c1 | Mycobacterium kansasii | My 235/80 | - | - | - | 21 d | MIC | - | 4 µM |
| Cn1ncc2c1C(=O)c1c(Cl)ccc(O)c1C2=O | Cryptosporidium parvum | - | - | - | - | - | inhibition | 10 µM | 79% |
| CN=C(N)c1ccc(N2CCN(c3ccccc3)CC2)cc1 | Pneumocystis carinii | - | - | - | - | - | inhibition | 10 µg/mL | 56% |
| CCOC(=O)/C=C/[C@H](C[C@@H]1CCNC1=O)NC(=O)[C@@H](CC(=O)[C@@H](NC(=O)c1cc(C)on1)C(C)C)Cc1ccc(F)cc1 | Rhinovirus | Isolate 11 | - | OHIO HELA-I | cytopathic effect / visual reading | - | EC50 | - | 0.03 µg/mL |
| CO/N=C1\CN(c2nc3c(cc2F)c(=O)c(C(=O)O)cn3C2CC2)CC1CN | Streptococcus pneumoniae | 37 isolates erythromycin-resistant | - | - | - | - | MIC90 | - | 0.063 µg/mL |
| N#Cc1ccc(OCCCCCOc2cccc(NC(N)=S)c2)cc1 | Hepatitis C virus | - | - | Ava5-EG(delta4AB)SEAP | reporter gene / fluorescence | - | EC50 | - | 0.001–1 µM |
| CC(C)c1nc2ccccc2c(=O)n1NC(=O)Nc1cc(C(F)(F)F)cc(C(F)(F)F)c1 | Escherichia coli | ES142 | - | - | - | - | MIC | - | >300 µM |
| Nc1nc2c(ncn2COCCO)c(=O)[nH]1 | Herpes simplex virus 2 | G | - | HFF | cytopathic effect | - | EC50 | - | 0.5 µg/mL |
| NC(=NC1CCCC1)c1ccc(-c2ccc(-c3ccc(C(N)=NC4CCCC4)cc3)o2)cc1 | Candida albicans | Isolate CA783 | - | - | - | - | MIC | - | 12.5 µg/mL |
| CCC(CC)[C@H](NC(C)=O)[C@@H]1[C@H](O)[C@@H](C(=O)O)C[C@H]1N=C(N)N | Influenza A virus | Influenza A/Washington/05/96 (H3N2) | - | MDCK | - | - | EC50 | - | 0.02 µM |
| OC[C@H]1O[C@@H](n2c(Cl)nc3cc(Cl)c(Cl)cc32)[C@H](O)[C@@H]1O | Human cytomegalovirus | Recombinant C4 (D341E) | - | - | virus yield | - | EC95 | - | 39 µM |
| COc1ccc(-n2c(C(=O)NCc3ccccc3-n3cccn3)c3n(c2=O)CCN(C(=O)c2ccc(Br)c(Cl)c2)C3)cc1 | Hepatitis B virus | - | - | HepG2.117 | PCR | - | EC50 | - | <0.1 µM |
| CCO/N=C/c1ccc(OCCC2CCN(c3ccc(Cl)nn3)CC2)cc1 | Rhinovirus | CH82 (ICAM-1 receptor group 56) | - | KB | neutral red | - | EC50 | - | 0.004 µM |
| OC[C@H]1O[C@@H](n2c(Br)nc3cc(Cl)c(Cl)cc32)[C@H](O)[C@@H]1O | Human cytomegalovirus | AD169 | - | MRC-5 | virus yield | - | EC50 | - | 0.018 µM |
| O=C(O)P(=O)(O)O | Cytomegalovirus | AD169 | - | HFF | hybridisation | - | inhibition | 50 µM | 17.4% |
| CC(C)CCN=C(N)c1ccc(N2CCN(c3ccccc3)CC2)cc1 | Pneumocystis carinii | - | - | - | - | - | inhibition | 50 µg/mL | 96% |
| Cn1cc(C(=O)NCc2ccc(Cl)cc2)c(=O)c2cc(CN3CCOCC3)ccc21 | Herpes simplex virus 2 | X-79 (WILD TYPE) | - | HFF | plaque count | - | EC50 | - | 4.7 µM |
| CCC(CC)[C@H](NC(C)=O)[C@@H]1[C@H](O)[C@@H](C(=O)O)C[C@H]1N=C(N)N | Influenza A virus | H1N1 TEXAS/36/91 | - | MDCK | plaque count | - | EC50 | - | 0.0001 µM |
| O=C(N[C@@H](C(=O)N1CCC[C@H]1c1ncc(-c2ccc(-c3ccc(-c4cnc([C@@H]5CCCN5C(=O)[C@H](NC(=O)C5CC5)c5ccccc5)s4)cc3)cc2)s1)c1ccccc1)C1CC1 | Hepatitis C virus | genotype 1b | Y93H+V153M+M202L+M265V | Huh7.5 | luciferase / reporter gene | - | EC50 | - | 0.008736 µM |
| OC[C@H]1O[C@@H](n2cnc3c(SCc4ccc(OC(F)(F)F)cc4)ncnc32)[C@H](O)[C@@H]1O | Toxoplasma gondii | RH adenosine kinase-deficient | - | - | - | - | inhibition | 5 µM | 0% |
| Cc1cc(O)c2c(c1Cl)C(=O)c1cn[nH]c1C2=O | Cryptosporidium parvum | - | - | - | - | - | inhibition | 10 µM | <10% |
| CCN=C(N)c1ccc(N2CCN(c3ccccc3)CC2)cc1 | Pneumocystis carinii | - | - | - | - | - | inhibition | 50 µg/mL | 83% |
| Oc1ccccc1C=Nc1ccccc1O | Cryptococcus neoformans | ATCC 62066 | - | - | broth dilution | - | MIC | - | 2 µg/mL |
| COc1cccc2c1C(=O)c1cnn(C)c1C2=O | Cryptosporidium parvum | - | - | - | - | - | inhibition | 50 µM | <10% |
| Cc1nc(NCCCCNc2ccnc3cc(Cl)ccc23)nc(-c2ccccc2)c1C(=O)OC(C)C | Cryptococcus neoformans | WP | - | - | - | - | MIC99 | - | 8 µg/mL |
| CCCCCCCCCCCCOC(=O)[C@]1(O)C[C@@H](O)[C@@H](O)[C@H](OC(=O)/C=C/c2ccc(O)c(O)c2)C1 | Aspergillus parasiticus | UMIP 1142.76 | - | - | absorbance | - | MIC50 | - | 750 µg/mL |
| COC(=O)N[C@H](C(=O)N1CCCC1c1ncc(-c2ccc(-c3ccc(-c4cnc([C@@H]5CC(C)CN5C(=O)[C@@H](NC(=O)CO)C(C)C)[nH]4)cc3)cc2)[nH]1)C(C)C | Hepatitis C virus | 1a | M28T | Lunet | luciferase | - | EC50 | - | 0.0025 µM |
| Cn1cc2c(n1)C(=O)c1cc3ccccc3c(O)c1C2=O | Cryptosporidium parvum | - | - | - | - | - | inhibition | 25 µM | <10% |
| CN[C@H]1CC[C@@H](c2ccc(Cl)c(Cl)c2)c2ccccc21 | Cryptococcus neoformans | VPCI 87 | - | - | broth dilution | - | MIC90 | - | 4 µg/mL |
| Cn1cc(C(=O)NCc2ccc(Cl)cc2)c(=O)c2cc(CN3CCOCC3)ccc21 | Varicella zoster virus | RA varicella isolate | - | HFF | plaque count | - | EC50 | - | 0.3 µM |
| NC(=S)Nc1cccc(OCCCCOc2ccccc2)c1 | Hepatitis C virus | - | - | Ava5-EG(delta4AB)SEAP | reporter gene / fluorescence | - | EC50 | - | 0.001–1 µM |
| C[C@H](Oc1ccc([C@@H](C)NC(=O)c2c3n(c(=O)n2-c2ccc(OC4CC4)cc2)CCN(C(=O)c2ccc(Br)c(Cl)c2)C3)c(F)c1)C(N)=O | Hepatitis B virus | - | - | HepG2.117 | PCR | - | EC50 | - | 0.1–0.5 µM |
| CCC(CC)[C@H](NC(C)=O)[C@@H]1C[C@@H](C(=O)O)C[C@H]1N=C(N)N | Influenza A virus | Influenza A/Washington/05/96 (H3N2) | - | MDCK | - | - | EC50 | - | 0.01 µM |
| O=C1Nc2ccc(F)c(F)c2[C@@](/C=C/C2CC2)(C(F)(F)F)N1 | HIV-1 | - | RT-Y188C | - | - | - | EC90 | - | <0.012 µM |
| O=C(NCc1ccc(Cl)cc1)c1cn2c3c(cc(CN4CCOCC4)cc3c1=O)OC(c1cccnc1)C2 | Rhesus cytomegalovirus | - | - | HFF | plaque count | - | EC50 | - | 3 µM |
| CCC(CC)N=C(N)c1ccc(N2CCN(c3ccccc3)CC2)cc1 | Pneumocystis carinii | - | - | - | - | - | inhibition | 50 µg/mL | 97% |
| O=C(Nc1cc(C(F)(F)F)cc(C(F)(F)F)c1)Nc1cc(C(F)(F)F)cc(C(F)(F)F)c1 | Klebsiella pneumoniae | KL21 | - | - | - | - | MIC | - | >300 µM |
| Oc1ccccc1N=Cc1cccc(O)c1O | Cryptococcus neoformans | F-10 | - | - | - | - | MIC99 | - | 4 µg/mL |
| N#Cc1ccc(CSc2ncnc3c2ncn3[C@@H]2O[C@H](CO)[C@@H](O)[C@H]2O)cc1 | Toxoplasma gondii | RH adenosine kinase-deficient | - | - | - | - | inhibition | 10 µM | 0% |
| CCCC(CCC)C(NC(C)=O)C1C(N=C(N)N)CC(C(=O)O)C1O | Influenza A virus | H1N1 A/NWS/33 | - | MDCK | - | - | EC50 | - | 21 µM |
| CCc1ccc(-n2c(C(=O)NCc3ccccc3)c3n(c2=O)CCN(C(=O)c2ccc(Br)c(Cl)c2)C3)nc1 | Hepatitis B virus | - | - | HepG2.117 | PCR | - | EC50 | - | 0.5–5 µM |
| CCCN=C(N)c1ccc(N2CCN(c3ccccc3)CC2)cc1 | Pneumocystis carinii | - | - | - | - | - | inhibition | 10 µg/mL | 72% |
| Oc1ccccc1N=Cc1ccc(F)cc1 | Cryptococcus gattii | ATCC 32608 | - | - | - | - | MIC99 | - | 22.6 µg/mL |
| C=CCc1ccc(OC)c(OC)c1 | Candida tropicalis | 3000 | - | - | turbidity | - | MIC90 | - | 350 µg/mL |
| N#Cc1cc([N+](=O)[O-])ccc1Oc1ccc(Cl)c(Cl)c1 | Coxsackie virus | TYPE A21 | - | VERO | - | - | inhibition | 25 µg/mL | 100% |
| O=C(Nc1cc(C(F)(F)F)cc(C(F)(F)F)c1)NS(=O)(=O)c1ccc(OC(F)(F)F)cc1 | Klebsiella pneumoniae | KL21 | - | - | - | - | MIC | - | >200 µM |
| CCOC(=O)c1cnc(NCCCCNc2ccnc3cc(Cl)ccc23)nc1C | Cryptococcus gattii | 547/OTTI-97-PI-10 | - | - | - | - | MIC99 | - | 16 µg/mL |
| O=c1oc2ccc(F)cc2c(=S)n1-c1ccc(Cl)cc1 | Mycobacterium kansasii | My 235/80 | - | - | - | 14 d | MIC | - | 2 µM |
| COc1ccc([C@@H](C)NC(=O)c2c3n(c(=O)n2-c2ccc(OC4CC4)cc2)C[C@@H](C)N(C(=O)c2ccc(Br)c(Cl)c2)C3)cc1 | Hepatitis B virus | - | - | HepG2.117 | PCR | - | EC50 | - | 0.5–5 µM |
| Cc1cccc2c1C(=O)c1cnn(C)c1C2=O | Cryptosporidium parvum | - | - | - | - | - | inhibition | 50 µM | <10% |
| CCOC(=O)c1c(C)nc(OCCCNc2ccnc3cc(Cl)ccc23)nc1-c1ccccc1 | Cryptococcus neoformans | LMM 820 | - | - | - | - | MIC99 | - | 8 µg/mL |